Test results taken from patent publication US7713926B2 (National University Corporation Gunma University, priority 2004, dated 2010).
The star is where a group is joined. ClZ = O=C(OCc1ccccc1Cl)*; Boc = CC(C)(C)OC(=O)*; OBn = c1ccc(CO*)cc1; Bn = c1ccc(C*)cc1; Acm = CC(=O)NC*

Experiment: general procedure: solution-phase peptide synthesis; EDC.HCl/HOBt; also HBTU/HOBt and DCC/HOBt
[1] = late stage modification step, run 1
[2] = late stage modification step, run 2

Substance	step yield (coupling step) [%]	further results
Boc-Asn-Asn-Asp(OBzl)-Gly-OTce	87	–
Boc-Asn-Asp(OBzl)-Gly-Gly-OBzl)	81	–
Boc-Asn-Lys(Cl-Z)-Thr(Bzl)-Tyr(Cl2-Bzl)-Asp(OBzl)-Leu-Asp(OBzl)-Phe-Lys(Cl-Z)-Thr(Bzl)-Pro-Asn-Asn-Asp(OBzl)-Gly-Gly-OBzl	94	–
Boc-Asn-Lys(Cl-Z)-Thr(Bzl)-Tyr(Cl2-Bzl)-Asp(OBzl)-Leu-Asp(OBzl)-Phe-Lys(Cl-Z)-Thr(Bzl)-Pro-Asn-Asn-Asp(OBzl)-Gly-OTce	75	–
Boc-Asn-Lys(Cl-Z)-Thr(Bzl)-Tyr(Cl2-Bzl)-Asp(OBzl)-Leu-OH	–	step yield [1]: 88%; step yield [2]: 89%
Boc-Asn-Lys(Cl-Z)-Thr(Bzl)-Tyr(Cl2-Bzl)-Asp(OBzl)-Leu-OTce	94	–
Boc-Asp(OBzl)-Phe-Lys(Cl-Z)-Thr(Bzl)-Pro-Asn-Asn-Asp(OBzl)-Gly-OTce	66	–
Boc-Asp(OBzl)-Phe-Lys(Cl-Z)-Thr(Bzl)-Pro-OTce	–	step yield (coupling step, run 1): 85%; step yield (coupling step, run 2): 78%
Boc-C(Acm)GGAS(Bn)E(OBn)-OH	–	step yield (late stage modification step): 72%
Boc-Cys(Acm)-Gly-Gly-Ala-Ser(Bzl)-Glu(OBzl)-Phe-Tyr(Cl2-Bzl)-Asn-Ser(Bzl)-Glu(OBzl)-Asn-Lys(Cl-Z)-Thr(Bzl)-Tr(Cl2-Bzl)-Asp(OBzl)-Le u-Asp(OBzl)-Phe-Lys(Cl-Z)-Thr(Bzl)-Pro-Asn-Asn-Asp(OBzl)-Gly-OH	–	step yield (late stage modification step): 62%
Boc-Cys(Acm)-Gly-Gly-Ala-Ser(Bzl)-Glu(OBzl)-Phe-Tyr(Cl2-Bzl)-Asn-Ser(Bzl)-Glu(OBzl)-Asn-Lys(Cl-Z)-Thr(Bzl)-Tyr(Cl2-Bzl)-Asp(OBzl)-Leu-Asp(OBzl)-Phe-Lys(Cl-Z)-Thr(Bzl)-Pro-Asn-Asn-Asp(OBzl)-Gly-OTc	69	–
Boc-D(OBn)FK(ClZ)T(Bn)P-OH	–	step yield [1]: 81%; step yield [2]: 91%
Boc-D(OBn)FK(ClZ)T(Bn)PNND(OBn)GG-OBn	63	–
Boc-Glu(OBzl)-Ala-Ser(Bzl)-Glu(OBzl)-OTce	94	–
Boc-Glu(OBzl)-Glu(OBzl)-Glu(OBzl)-Glu(OBzl)-Ala-Ser(Bzl)-Glu(OBzl)-Phe-Tyr(Cl2-Bzl)-Asn-Ser(Bzl)-Glu(OBzl)-Asn-Lys(Cl-Z)-Thr(Bzl)-Tyr(Cl2-Bz) -Asp(OBzl)-Leu-Asp(OBzl)-Phe-Lys(Cl-Z)-Thr(Bzl)-Pro-Asn-Asn-Asp(OBzl)-Gly-Gly-OBzl	77	–
Boc-Gly-Ala-Ser(Bzl)-Glu(OBzl)-OTce	89	–

Substance	step yield (coupling step) [%]	further results
Boc-Gly-Gly-Ala-Ser(Bzl)-Glu(OBzl)-OTce	92	–
Boc-Lys(Cl-Z)-Thr(Bzl)-Tyr(Cl2-Bzl)-Asp(OBzl)-Leu-OTce	89	–
Boc-NND(OBn)GG-OBn	64	–
Boc-Phe-Lys(Cl-Z)-Thr(Bzl)-Pro-OTce	–	step yield (coupling step, run 1): 69%; step yield (coupling step, run 2): 78%
Boc-Phe-Tyr(Cl2-Bzl)-Asn-Ser(Bzl)-Glu(OBzl)-Asn-Lys(Cl-Z)-Thr(Bzl)-Tyr(Cl2-Bzl)-Asp(OBzl)-Leu-Asp(OBzl)-Phe-Lys(Cl-Z)-Thr(Bzl)-Pro-Asn-Asn-A sp(OBzl)-Gly-OTce	42	–
Boc-Phe-Tyr(Cl2-Bzl)-Asn-Ser(Bzl)-Glu(OBzl)-Asn-Lys(Cl-Z)-Thr(Bzl)-Tyr(Cl2-Bzl)-Asp(OBzl)-Leu-Asp(OBzl)-Phe-Lys(Cl-Z)-Thr(Bzl)-Pro-Asn-Asn-Asp(OBzl)-Gly-Gly-OBzl	73	–
Boc-Phe-Tyr(Cl2-Bzl)-Asn-Ser(Bzl)-Glu(OBzl)-OH	–	step yield (late stage modification step): 95%
Boc-Phe-Tyr(Cl2-Bzl)-Asn-Ser(Bzl)-Glu(OBzl)-OTce	–	step yield (coupling step, run 1): 95%; step yield (coupling step, run 2): 91%
Boc-Thr(Bzl)-Tyr(Cl2-Bzl)-Asp(OBzl)-Leu-OTce	76	–
Boc-Tyr(Cl2-Bzl)-Asn-Ser(Bzl)-Glu(OBzl)-OTce	–	step yield (coupling step, run 1): 73%; step yield (coupling step, run 2): 82%
Boc-[Glu(OBzl)]2-Ala-Ser(Bzl)-Glu(OBzl)-OTce	92	–
Boc-[Glu(OBzl)]3-Ala-Ser(Bzl)-Glu(OBzl)-OTce	89	–
Boc-[Glu(OBzl)]4-Ala-Ser(Bzl)-Glu(OBzl)-OH	–	step yield (late stage modification step): 90%
Boc-[Glu(OBzl)]4-Ala-Ser(Bzl)-Glu(OBzl)-OTce	90	–
H-C(Acm)GGASEFYNSENKTYDLDFKTPNNDG-OH	–	step yield (late stage modification step): 77%
H-EEEEASEFYNSENKTYDLDFKTPNNDGG-OH	–	step yield (late stage modification step): 81%
